Compound potency records, mixed from different reports. Data source: NIAID ChemDB in PubChem.

Common to all: enzyme or target tests; organism: Pneumocystis carinii; protein: Dihydrofolate reductase; measure: IC50

ICn: concentration for n% inhibition. Conditions beyond the fields shown may differ between rows.

SMILES | value
Nc1nc2[nH]c(CCc3ccccn3)cc2c(=O)[nH]1 | >19 µM
Nc1nc(N)c2cc(COC(=O)c3cccs3)ccc2n1 | 0.27 µM
CC1(C)CN2CCC1c1nc(N)nc(N)c12 | >46 µM
Nc1nc(N)c2cc(COC(=O)c3ccccc3)ccc2n1 | 0.6 µM
COc1ccc2c(c1)CCc1nc3nc(N)nc(N)c3cc1-2 | 7.7 µM
CC(Cc1c[nH]c2nc(N)nc(N)c12)c1ccc2ccccc2c1 | 0.859 µM
Nc1nc(N)c2cc(COC(=O)c3ccsc3)ccc2n1 | 4.3 µM
COc1ccc(CCc2cc3c(=O)[nH]c(N)nc3[nH]2)cc1 | >18 µM
Nc1nc(N)c2cc3ccc4ccccc4c3nc2n1 | >0.4 µM
Cc1ccc(CCc2cc3c(=O)[nH]c(N)nc3[nH]2)cc1 | >18 µM
CC(C)(C)C1CCc2nc(N)nc(N)c2C1 | 0.18 µM
Nc1nc(N)c2cc3c(nc2n1)-c1ccccc1CC3 | 15.8 µM
Nc1nc(N)c2c(n1)-c1ccccc1C2 | >205 µM
Nc1nc(N)c2cc(COC(=O)c3ccc4ccccc4c3)ccc2n1 | 0.85 µM
CC(Cc1c[nH]c2nc(N)nc(N)c12)c1ccc(-c2ccccc2)cc1 | 1.99 µM
Nc1nc(N)c2cc(COC(=O)C(c3ccccc3)c3ccccc3)ccc2n1 | 5.8 µM
Nc1nc2[nH]c(CCc3ccc4ccccc4c3)cc2c(=O)[nH]1 | >17 µM
COc1ccc2c(c1)-c1nc3nc(N)nc(N)c3cc1CC2 | 38.4 µM
Nc1nc(N)c2cc(COC(=O)c3cccc(-c4ccccc4)c3)ccc2n1 | 0.38 µM

For reference, 3 entries again:

{"SMILES": "Nc1nc(N)c2cc(COC(=O)c3ccc4ccccc4c3)ccc2n1", "value": "0.85 µM"}
{"SMILES": "Nc1nc(N)c2cc3ccc4ccccc4c3nc2n1", "value": ">0.4 µM"}
{"SMILES": "Nc1nc(N)c2cc(COC(=O)c3cccc(-c4ccccc4)c3)ccc2n1", "value": "0.38 µM"}